Test: Inhibition of 4-hydroxyphenylpyruvate dioxygenase

In the case of `CC[C@H](C)[C@H]1NC(=O)/C(=C(\C)O)C1=O`, the IC50 is reported as 18 µM.

Source: ChEMBL document CHEMBL3045666, “The phytotoxicity of natural tetramic acid derivatives” (Pest Manag Sci, 2011)
